Measured values from patent publication US5547861.
For part of these data: Negatives hold for the conditions tested. For at least one entry, the source does not settle the construct or the ends of the probe. For part of these data: Tags and fusion partners may be left off the protein sequences shown.

Chains of the proteins cited; added tags and fusions are not shown. Residues count along the entry.
UniProt P00642, 2-277: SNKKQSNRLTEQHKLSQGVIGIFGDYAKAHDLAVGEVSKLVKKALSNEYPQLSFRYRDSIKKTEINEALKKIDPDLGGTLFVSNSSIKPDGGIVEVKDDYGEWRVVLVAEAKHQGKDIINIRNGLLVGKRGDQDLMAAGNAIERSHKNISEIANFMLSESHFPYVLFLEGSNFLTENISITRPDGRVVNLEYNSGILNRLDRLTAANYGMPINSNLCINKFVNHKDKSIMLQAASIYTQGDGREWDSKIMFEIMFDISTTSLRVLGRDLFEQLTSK

Legend:
[1] = molecular target: T1, HincII restriction endonuclease (UniProt P17743); experiment: enzyme reaction in vitro; conditions: dATPalphaS (phosphorothioate) and dUTP incorporated in polymerase-extended portions; 32P 13-mer cleavage product seen only with M.tb target; SDA buffer, 7 mM MgCl2, 41 C; purified native protein; protein details: New England Biolabs; label: 5'-32P
T1 sequence (looked up, limits assumed): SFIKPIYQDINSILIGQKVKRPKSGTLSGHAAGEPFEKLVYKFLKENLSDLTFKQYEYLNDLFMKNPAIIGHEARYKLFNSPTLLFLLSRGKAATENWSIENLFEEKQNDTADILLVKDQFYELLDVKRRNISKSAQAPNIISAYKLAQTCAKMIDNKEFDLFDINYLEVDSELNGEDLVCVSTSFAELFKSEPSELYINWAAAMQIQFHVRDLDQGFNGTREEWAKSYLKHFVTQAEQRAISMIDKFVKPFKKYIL

[2] = molecular target: EcoRI restriction endonuclease (UniProt P00642); experiment: enzyme reaction in vitro; conditions: purified native protein, label: 5'-32P

## GTACGTCTATGTCAACATCCGTATGGTGGATAACGTCTTTCA (double strand) [HincII-site signal primer extended to double-stranded 79-mer]
[1]
  activity on this sequence: active

## GGAATTCATCCGTATGGTGGATAACGTCTTTCA (double strand) [EcoRI-site signal primer extended to double-stranded 70-mer]
[2]; dATPalphaS (phosphorothioate) and dUTP incorporated in polymerase-extended portions, 32P dinucleotide released, seen only with M.tb target, 37 C 30 min after SDA
  activity on this sequence: active

## GGAATTCATCCGTATGGTGGATAACGTCTTTCA [EcoRI-site signal primer, single-stranded 33-mer]
[2]; no dinucleotide product without target DNA, filtrate at background, single-stranded DNA
  activity on this sequence: not active
